{
  "source": "paper PMC7954794",
  "about": "“Protein context shapes the specificity of SH3 domain-mediated interactions in vivo” (Nature Communications, 2021)",
  "type_in_all_cases": "cell-based, Saccharomyces cerevisiae",
  "parameters_in_all_cases": "key: 0: SH3-independent; 1: SH3-dependent PPIs; 2: SH3-inhibited PPIs",
  "key": {"[1]": {"system": "BEM1-2", "experiment": "DHFR-PCA on solid medium, bait BEM1-2 (Fig. 1B)", "details": "bait BEM1-2, label = prey", "text": "(§1) Supplement 41467_2021_21873_MOESM8_ESM.xlsx, sheet \"Fig1B\" | column: medsize; medrep; Ratio; Score"}, "[2]": {"system": "BEM1-1", "experiment": "DHFR-PCA on solid medium, bait BEM1-1 (Fig. 1B)", "details": "bait BEM1-1, label = prey", "text": "as §1"}, "[3]": {"system": "ABP1", "experiment": "DHFR-PCA on solid medium, bait ABP1 (Fig. 1B)", "details": "bait ABP1, label = prey", "text": "as §1"}},
  "note": "No dose or concentration is given here for some results.",
  "data": [
    {"molecule": "YAL041W (protein, UniProt P11433 1-854, looked up) Cell division control protein …: MAIQTRFASGTSLSDLKPKPSATSISIPMQNVMNKPVTEQDSLFHICANIRKRLEVLPQLKPFLQLAYQSSEVLSERQSLLLSQKQHQELLKSNGANRDSSDLAPTLRSSSISTATSLMSMEGISYTNSNPSATPNMEDTLLTFSMGILPITMDCDPVTQLSQLFQQGAPLCILFNSVKPQFKLPVIASDDLKVCKKSIYDFILGCKKHFAFNDEELFTISDVFANSTSQLVKVLEVVETLMNSSPTIFPSKSKTQQIMNAENQHRHQPQQSSKKHNEYVKIIKEFVATERKYVHDLEILDKYRQQLLDSNLITSEELYMLFPNLGDAIDFQRRFLISLEINALVEPSKQRIGALFMHSKHFFKLYEPWSIGQNAAIEFLSSTLHKMRVDESQRFIINNKLELQSFLYKPVQRLCRYPLLVKELLAESSDDNNTKELEAALDISKNIARSINENQRRTENHQVVKKLYGRVVNWKGYRISKFGELLYFDKVFISTTNSSSEPEREFEVYLFEKIIILFSEVVTKKSASSLILKKKSSTSASISASNITDNNGSPHHSYHKRHSNSSSSNNIHLSSSSAAAIIHSSTNSSDNNSNNSSSSSLFKLSANEPKLDLRGRIMIMNLNQIIPQNNRSLNITWESIKEQGNFLLKFKNEETRDNWSSCLQQLIHDLKNEQFKARHHSSTSTTSSTAKSSSMMSPTTTMNTPNHHNSRQTHDSMASFSSSHMKRVSDVLPKRRTTSSSFESEIKSISENFKNSIPESSILFRISYNNNSNNTSSSEIFTLLVEKVWNFDDLIMAINSKISNTHNNNISPITKIKYQDEDGDFVVLGSDEDWNVAKEMLAENNEKFLNIRLY", "values": [
      {"measurement": "Score", "setting": "[1]", "value": 0},
      {"measurement": "Score", "setting": "[2]", "value": 0}
    ]},
    {"molecule": "YDR166C (protein, UniProt P89102 1-971, looked up) Exocyst complex component SEC5: MDRFQIGDEQLLRFYQLKTINPTHSWAQDSSKLNNEEATSNELGVETSFDILKDFKYGNQISIDKESRAYLNDESLSYIRDPLNGQEMSKELQHLPNDSMRLNYLVNSKQFNVKAFLRDMHKQDSFNDLNNSLDRLDSDIQDQSIHLKQLVGKNFTKYVKIKNKLDQIYKEFDEKTNEKNQCDSPKENQINVESLNKKVDEVIRTTTFKLKPLMDNYQKILNYQATKKFIELNKFYFNLPKSLKRCLTNNDFNEFIIEYSKGLTLRRRFNQSSDASQSLVIKRIWTQIENLLVTYKDLIWNSLINSNFNIDQPQETILSLFSKLLNLENFINNNQRESESGNKNTTSSSNENPILRWMSIKMNGFQNELNELSGHMISKIIHSQRLILQNNTNQDKSQGCVELSYYLKINQLFQIISDTGKDSEGLKSTVEPNKVNTISGTSYLNLNCQPSSQGLTDSPTIIEMWLLILKYINDLWKICDQFIEFWEHIEKFLDGTYQNSIINEKRKENILIGDSNIIESYQKSLILKEEQINEVRLKGEEFITSVSQNLISFFTSSQSSLPSSLKDSTGDITRSNKDSGSPLDYGFIPPNCNGLSCLRYLPKIVEPILKFSTELAQLNITTNGITICRNTLSTIINRCVGAISSTKLRDISNFYQLENWQVYETVTFSSKSQDSSKNLTFEYGVTQFPEIVTSFQEVSIKTTRDLLFAYEKLPIINGISVVSYPSKQLLTGIEIQQIISMEAVLEAILKNAAKDKDNPRNSHTILTLTNLQYFRECAFPNILQYFDDAFEWNLASKNLELFSLLSKMESSIFGNYLSDLKINLRDTLEEKFHEINWPMYTSNSFRVGDYIIEALMILIVVHSECFRIGPQLIHKILIETQIFIARYLFEAFKPYVGNLSNDGSLQIIVDLEFFQKVMGPLLEKDTEATLRACLQNCFQNDTNRLQKCINEINPIVSANLKRTAIQFAAFS", "values": [
      {"measurement": "Score", "setting": "[1]", "value": 1},
      {"measurement": "Score", "setting": "[2]", "value": 0}
    ]},
    {"molecule": "YDL065C (protein, UniProt Q07418 1-339, looked up) Peroxisomal membrane protein …: MNENEYDNFDDLDDLLDEDPTKLDEAEPDDVQAKGSVYNDSENKEKNAESKDSDGVQVANESEEDPELKEMMVDLQNEFANLMKNNGNENNVKTEDFNKLISALEEAAKVPHQQMEQGCSSLKSNSTDKGTVNGSNPGFKNIVSNTLDRLKENGNKVDTSLAEETKESQRSGQNNNIDDILSQLLDQMVASGGKESAENQFDLKDGEMDDAITKILDQMTSKEVLYEPMKEMRSEFGVWFQENGENEEHKEKIGTYKRQFNIVDEIVNIYELKDYDELKHKDRVTELLDELEQLGDSPIRSANSPLKHGNEEEELMKMLEIDGNDPNLGNLDKELTDGC", "values": [
      {"measurement": "Score", "setting": "[3]", "value": 2},
      {"measurement": "Score", "setting": "[2]", "value": 2}
    ]},
    {"molecule": "YDR329C (protein, UniProt P28795 1-441, looked up) Peroxisomal biogenesis factor …: MAPNQRSRSLLQRHRGKVLISLTGIAALFTTGSVVVFFVKRWLYKQQLRITEQHFIKEQIKRRFEQTQEDSLYTIYELLPVWRMVLNENDLNLDSIVTQLKDQKNQLTRAKSSESRESSPLKSKAELWNELELKSLIKLVTVTYTVSSLILLTRLQLNILTRNEYLDSAIKLTMQQENCNKLQNRFYNWVTSWWSDPEDKADDAMVMAAKKSKKEGQEVYINEQAFLSLSWWILNKGWLSYNEIITNQIEIEFDGIHPRDTLTLEEFSSRLTNIFRNTNSQIFQQNNNNLTSILLPKDSSGQEFLLSQTLDADALTSFHSNTLVFNQLVNELTQCIESTATSIVLESLINESFHFIMNKVGIKTIAKKKPGQEDQQQYQMAVFAMSMKDCCQEMLQTTAGSSHSGSVNEYLATLDSVQPLDDLSASVYSNFGVSSSFSFKP", "values": [
      {"measurement": "Score", "setting": "[2]", "value": 2}
    ]},
    {"molecule": "YGL153W (protein, UniProt P53112 2-341, looked up) Peroxisomal membrane protein …: SDVVSKDRKALFDSAVSFLKDESIKDAPLLKKIEFLKSKGLTEKEIEIAMKEPKKDGIVGDEVSKKIGSTENRASQDMYLYEAMPPTLPHRDWKDYFVMATATAGLLYGAYEVTRRYVIPNILPEAKSKLEGDKKEIDDQFSKIDTVLNAIEAEQAEFRKKESETLKELSDTIAELKQALVQTTRSREKIEDEFRIVKLEVVNMQNTIDKFVSDNDGMQELNNIQKEMESLKSLMNNRMESGNAQDNRLFSISPNGIPGIDTIPSASEILAKMGMQEESDKEKENGSDANKDDNAVPAWKKAREQTIDSNASIPEWQKNTAANEISVPDWQNGQVEDSIP", "values": [
      {"measurement": "Score", "setting": "[2]", "value": 2}
    ]},
    {"molecule": "YLR191W (protein) EFARALYDFVPENPEMEVALKKGDLMAILSKKDPLGRDSDWWKVRTKNGNIGYIPYNYIEIIK", "values": [
      {"measurement": "Score", "setting": "[2]", "value": 2}
    ]},
    {"molecule": "YOL147C (protein, UniProt Q12462 2-236, looked up) Peroxisomal membrane protein …: VCDTLVYHPSVTRFVKFLDGSAGREKVLRLLQYLARFLAVQNSSLLARQLQAQFTTVRKFLRFLKPLNHLQAAAKFYDNKLASDNVVRVCNVLKNIFFAAYLSLDQVNLLRILKVIPVTVLTGKKIPRWSNWCWLFGLLSGLAMDLRKIQTSHAQIAAFVKAKSQSQGDEHEDHKKVLGKAYQDRYTALRRLFWDAADSFIVLNNLGYLSSNEEYVALSGVVTSILGMQDMWKAT", "values": [
      {"measurement": "Score", "setting": "[2]", "value": 2}
    ]},
    {"molecule": "YNR007C (protein, UniProt P40344 1-310, looked up) Autophagy-related protein 3: MIRSTLSSWREYLTPITHKSTFLTTGQITPEEFVQAGDYLCHMFPTWKWNEESSDISYRDFLPKNKQFLIIRKVPCDKRAEQCVEVEGPDVIMKGFAEDGDEDDVLEYIGSETEHVQSTPAGGTKDSSIDDIDELIQDMEIKEEDENDDTEEFNAKGGLAKDMAQERYYDLYIAYSTSYRVPKMYIVGFNSNGSPLSPEQMFEDISADYRTKTATIEKLPFYKNSVLSVSIHPCKHANVMKILLDKVRVVRQRRRKELQEEQELDGVGDWEDLQDDIDDSLRVDQYLIVFLKFITSVTPSIQHDYTMEGW", "values": [
      {"measurement": "Score", "setting": "[3]", "value": 2}
    ]},
    {"molecule": "YOR229W (protein, UniProt Q12206 1-467, looked up) Transcriptional modulator WTM2: MAKSKSSQGASGARRKPAPSLYQHISSFKPQFSTRVDDVLHFSKTLTWRSEIIPDKSKGTLTTSLLYSQGSDIYEIDTTLPLKTFYDDDDDDDNDDDDEEGNGKTKSAATPNPEYGDAFQDVEGKPLRPKWIYQGETVAKMQYLESSDDSTAIAMSKNGSLAWFRDEIKVPVHIVQEMMGPATRYSSIHSLTRPGSLAVSDFDVSTNMDTVVKSQSNGYEEDSILKIIDNSDRPGDILRTVHVPGTNVAHSVRFFNNHLFASCSDDNILRFWDTRTADKPLWTLSEPKNGRLTSFDSSQVTENLFVTGFSTGVIKLWDARAVQLATTDLTHRQNGEEPIQNEIAKLFHSGGDSVVDILFSQTSATEFVTVGGTGNVYHWDMEYSFSRNDDDNEDEVRVAAPEELQGQCLKFFHTGGTRRSSNQFGKRNTVALHPVINDFVGTVDSDSLVTAYKPFLASDFIGRGYDD", "values": [
      {"measurement": "Score", "setting": "[3]", "value": 2}
    ]},
    {"molecule": "YPL246C (protein, UniProt Q12270 1-262, looked up) Rhomboid-type serine protease …: MNWKSYVFPGGHPPAALTTGLVVFLTAIYLLSFIFALREDLSLAPESLFKLQMSRLSLYPLIHLSLPHLLFNVLAIWAPLNLFEETHGTVYTGVFLNLSALFAGILYCLLGKLLYPEALVAGASGWCFTLFAYYSFKESQIRPRTRIFRTDYSIPTLYTPLVLLVAIAVVIPGSSFWGHFFGLCVGYAIGYKESWFNKITPPGWIITKIEKSLDGLIRLIPWGIKYYRDEDIDRTKDYEPLMSTETPLPLHNDNSGTVLGTA", "values": [
      {"measurement": "Score", "setting": "[3]", "value": 2}
    ]},
    {"molecule": "YCR009C (protein, UniProt P25343 1-265, looked up) Reduced viability upon …: MSWEGFKKAINRAGHSVIIKNVDKTIDKEYDMEERRYKVLQRAGEALQKEAKGFLDSLRAVTASQTTIAEVISNLYDDSKYVAGGGYNVGNYYLQCVQDFDSETVKQLDGPLRETVLDPITKFSTYFKEIEEAIKKRDHKKQDFDAAKAKVRRLVDKPAKDASKLPRAEKELSLAKDIFENLNNQLKTELPQLVSLRVPYFDPSFEALIKIQLRFCTDGYTRLAQIQQYLDQQSRDDYANGLLDTKIEELLGQMTSLDICALGIK", "values": [
      {"measurement": "Score", "setting": "[3]", "value": 0}
    ]}
  ]
}
